Pooled drug test results. Numbers come from NIAID ChemDB, via PubChem.

All rows: growth or infection tests; agent: Mycobacterium tuberculosis

An empty or dashed field is not shown.

compound,conditions,measure,strain or isolate,dose,cells,read by,changes,value
C[C@H]1C[C@H](N)CN1c1cc2c(cc1F)c(=O)c(C(=O)O)cn2-c1ccc(F)cc1F,,MBC,ATCC 35822,,,,,>8 µg/mL
CC1CN(c2cc3c(cc2F)C(=O)c2nc4ccccc4c(=O)n2-3)CCN1C(=O)OC(C)(C)C,,MIC,MDR 10038,,,,,>5 µg/mL
C=CCOc1cc(NC(=S)c2ccoc2C)ccc1OC,,MIC bound,H37Rv,,,BACTEC,,>12.5 µg/mL
C/C=N/NC(=O)c1ccncc1,,MIC,,,,,,0.1 µg/mL
CC(=O)c1cc([N+](=O)[O-])c2ncccc2c1C1CCCC1,,inhibition,H37Rv,6.25 µg/mL,,,,0%
COc1cc2c(cc1OC(C)C)c[n+](C)c1c3cc4c(cc3ccc21)OCO4,,inhibition,H37Rv,12.5 µg/mL,,BACTEC,,77%
COC1=CC(=O)c2c(ccc3ncnc(N)c23)C1=O,,inhibition,H37Rv,12.5 µg/mL,,BACTEC,,87%
O=Cc1ccc(/C=N/NC(=O)c2ccncc2)cc1,,MIC99,H37Rv delta-katG,,,BACTEC,INH resistant,>39.5 µM
C[C@H]1COc2c(N3CCN(C)CC3)c(F)cc3c(=O)c(C(=O)O)cn1c23,,MIC50,DRUG-SUS,,,,,0.25 µg/mL
CC(C)N(C(=S)Nc1ccccc1)c1ccc(Cl)c(Cl)c1,,MIC,,,,visual reading,,400 µg/mL
COc1cc2c(cc1OC)CN(c1nc3c(cc1[N+](=O)[O-])c(=O)c(C(=O)O)cn3-c1ccc(F)cc1F)CC2,,MIC,ATCC35801,,,,,6.13 µM
CSC(=S)N/N=C/C(C)=N/N=C(N)N,,MIC,H37Rv,,,BACTEC,,16 µg/mL
COc1cc(/C=N/N=C(\N)c2ccncc2)cc(OC)c1OC,,MIC,1481,,,,,256 µg/mL
COc1cccc(/C=N/NC(=O)c2ccncc2)c1,,MIC,,,,,,0.1 µg/mL
CC[C@H]1OC(=O)[C@H](C)[C@@H](O[C@H]2C[C@@](C)(OC)[C@@H](O)[C@H](C)O2)[C@H](C)[C@@H](O[C@@H]2O[C@H](C)C[C@H](N(C)C)[C@H]2O)[C@](C)(O)C[C@@H](C)C(=O)[C@H](C)[C@@H](O)[C@]1(C)O,,MIC,ATCC 35827,,,,,>8 µg/mL
COCCNC(=O)c1ccc2c(c1)[n+](=O)c(C(C)=O)c(C)n2[O-],,inhibition,H37Rv,6.25 µg/mL,,resazurin,,46%
CCC(C)N(C(=S)NC)c1ccc(Cl)c(Cl)c1,,zone,,1000 µg/mL,,visual reading,,9.59 mm
COc1cccc(N2CCN(CN3C(=O)/C(=N\c4ncc(Cc5cc(OC)c(OC)c(OC)c5)c(N)n4)c4cc(F)ccc43)CC2)c1,,inhibition,H37Rv,6.25 µg/mL,,,,63%
COc1ccc2c(c[n+](C)c3c4cc5c(cc4ccc23)OCO5)c1OC,,MIC,H37Rv,,,BACTEC,,<12.5 µg/mL
O=C(O)c1cc(N=C=S)ccc1-c1c2ccc(=O)cc-2oc2cc(O)ccc12,,inhibition,H37Rv,12.5 µg/mL,,BACTEC,,0%
O=[N+]([O-])c1ccccc1S(=O)(=O)c1ccc([N+](=O)[O-])c2cccnc12,,MIC,H37Rv,,,,,100 µg/mL
CCC(C)N(C(=S)Nc1ccccc1)c1ccc(Cl)c(Cl)c1,,MIC,,,,visual reading,,>400 µg/mL
O=C1c2ccccc2-n2c1nc1ccc(F)cc1c2=O,,MIC,MDR 10038,,,,,1.3 µg/mL
COc1cccc(N=Nc2c(-c3ccccc3)nn(C(=S)S)c2C)c1,,MIC bound,H37Rv,,,BACTEC,,>12.5 µg/mL
NNC(=O)c1cc(-c2ccccc2)nc2ccccc12,,MIC,,,,,,>40 µg/mL
CCC(C)N(C(=S)Nc1ccccc1)c1ccc(F)c(Cl)c1,,MIC,,,,visual reading,,400 µg/mL
O=C(O)c1cn(C2CC2)c2cc(N3CCN(C(=O)C4COc5ccccc5O4)CC3)c(F)cc2c1=O,,MIC,ATCC35801,,,,,3.17 µM
Cc1n[nH]c(=O)c2ccccc12,,inhibition,H37Rv,0.5 µM,,BACTEC,,0%
Fc1ccc(N(C(=S)Nc2ccccc2)C2CCCCC2)cc1Cl,,MIC,,,,visual reading,,400 µg/mL
COc1cccc2c1C(=O)c1c(O)c3c(c(O)c1C2=O)C[C@@](O)(/C(C)=N/NC(N)=O)CC3OC1CC(N)C(O)C(C)O1.Cl,,MIC,ETA-R,,,,,12.5 µg/mL
O=C(O)c1cn(C2CC2)c2cc(N3CCC(O)(c4ccc(Cl)cc4)CC3)c([N+](=O)[O-])cc2c1=O,,MIC,ATCC35801,,,,,0.42 µM
COc1ccc(OC)c(/C=N/N=C(\N)c2ccncc2)c1,,MIC,H37Rv,,,,,256 µg/mL
COc1cc2c[n+](C)c3c4cc5c(cc4ccc3c2cc1O)OCO5,,inhibition,H37Rv,12.5 µg/mL,,BACTEC,,0%
CC(=O)c1cc(N)c2nc(C(C)(C)C)ccc2c1,,MIC,H37Rv,,,,,>6.25 µg/mL
CC(C)(C)c1ncc(CCCN=C(N)N)[nH]c1=O,,MIC,H37Rv,,,,,6.3 µg/mL
CC(C)c1ccc2cccc([N+](=O)[O-])c2n1,,MIC,H37Rv,,,,,>6.25 µg/mL
CC(C)(C)n1cc(C(=O)O)c(=O)c2cc([N+](=O)[O-])c(N3CCC(O)(c4ccc(Cl)cc4)CC3)cc21,,MIC,ATCC35801,,,,,3.29 µM
CNC(=S)N(c1ccc(F)c(Cl)c1)C(C)C,,MIC,,,,visual reading,,>400 µg/mL
Cc1ccc2c(c1)C(=O)c1nc3ccccc3c(=O)n1-2,,MIC,MDR 10038,,,,,5 µg/mL
COc1cc2c(C)[n+](C)c3c4cc5c(cc4ccc3c2cc1OC)OCO5,,inhibition,H37Rv,12.5 µg/mL,,BACTEC,,97%
Cc1ccc(Oc2ccc(N)c3cccnc23)c(C)c1,,MIC,H37Rv,,,,,1 µg/mL
N/C(=N\N=C\c1ccc(Cl)c([N+](=O)[O-])c1)c1ccncc1,,MIC,1054,,,,,>256 µg/mL
COc1cc(Cl)c(/C=N/NC(=O)c2cccnc2)c(Cl)c1,,MIC,,,,,,10 µg/mL
C=C(NC(CC(C)C)C(=O)N1CCCC1C(=O)O)C1CCCN1C(=O)C(NC(=O)C(C)NC(=O)C(NC(=O)C(NC=O)C(C)CC)C(C)O)C(C)C,,MIC,MDR,,,agar,,16 µg/mL
O=[N+]([O-])c1ccc(Oc2cc(Cl)ccc2Cl)c2ncccc12,,MIC,H37Rv,,,,,10 µg/mL
Cc1cc(CCN)c(C)c2c1oc1ccccc12,,MIC bound,H37Rv,,,BACTEC,,≤12.5 µg/mL
O=[N+]([O-])c1ccc(SC2NC=CS2)c2ncccc12,,MIC,H37Rv,,,,,10 µg/mL
CCc1ccnc2c([N+](=O)[O-])cc(C(C)=O)c(OC3CCCC3)c12,,MIC,H37Rv,,,,,>6.25 µg/mL
N/C(=N\N=C\c1ccccc1Br)c1ccncc1,,MIC,1481,,,,,8 µg/mL
O=[N+]([O-])c1ccc(Sc2nc3ccccc3[nH]2)c2ncccc12,,MIC,H37Rv,,,,,40 µg/mL
O=C(N/N=C/c1ccncc1)c1ccncc1,,MIC,,,,,,0.1 µg/mL
Nc1ccc(Sc2ccc(O)cc2)c2ncccc12,,MIC,H37Rv,,,,,40 µg/mL
CC[C@H]1OC(=O)[C@H](C)[C@@H](O[C@H]2C[C@@](C)(OC)[C@@H](O)[C@H](C)O2)[C@H](C)[C@@H](O[C@@H]2O[C@H](C)C[C@H](N(C)C)[C@H]2O)[C@](C)(O)C[C@@H](C)CN(C)[C@H](C)[C@@H](O)[C@]1(C)O,,MIC,ATCC 35823,,,,,>8 µg/mL
COc1cc(Cc2cnc(/N=C3\C(=O)N(CN4CCN(c5c(F)cc6c(=O)c(C(=O)O)cn(C7CC7)c6c5OC)CC4C)c4ccc(F)cc43)nc2N)cc(OC)c1OC,,EC50,H37Rv,,,,,<6.25 µg/mL
CC[C@H]1OC(=O)[C@H](C)[C@@H](O[C@H]2C[C@@](C)(OC)[C@@H](O)[C@H](C)O2)[C@H](C)[C@@H](O[C@@H]2O[C@H](C)C[C@H](N(C)C)[C@H]2O)[C@](C)(OC)C[C@@H](C)C(=O)[C@H](C)[C@@H](O)[C@]1(C)O,,MBC,ATCC 35826,,,,,>8 µg/mL
COc1ccc2c(ccc3oc([N+](=O)[O-])cc32)c1,,MIC,H37Rv,,VERO,,,≤0.1 µg/mL
COc1cc(Cc2cnc(/N=C3\C(=O)N(CN4CCCC4)c4ccc(F)cc43)nc2N)cc(OC)c1OC,,inhibition,H37Rv,6.25 µg/mL,,,,36%
N/C(=N\N=C\c1ccc(Cl)cc1)c1ccncc1,,MIC,1054,,,,,64 µg/mL
Cc1cc(N=Nc2ccc(Sc3ccc(N=Nc4ccc(O)c(C(=O)[O-])c4)cc3)cc2)c(N)c(N=Nc2ccc(C(=O)[O-])cc2)c1N.[Na+].[Na+],,MIC bound,H37Rv,,,BACTEC,,>12.5 µg/mL
C=C(C)CC[C@H]1CN(c2ccn(N3CCOCC3)c2)C(=O)O1,,MIC90,C.I.1104,,,,,>100 µM
O=[N+]([O-])[O][Ga]([O][N+](=O)[O-])[O][N+](=O)[O-],inside macrophages,inhibition,MDR isolates,500 µM,,,,85%
CNC(=S)N(Cc1ccco1)c1ccc(F)c(Cl)c1,,zone,,1000 µg/mL,,visual reading,,12.6 mm
Cc1ccc(S(=O)(=O)N2CC(O)C(O)C2Cn2cnc3c(N)ncnc32)cc1,,inhibition,H37Rv,6.25 µg/mL,,resazurin,,5%
N/C(=N\N=C\c1cccc(F)c1)c1ccncc1,,MIC,1342,,,,,64 µg/mL
COc1cc2c(c3c1c[n+](C)c1c4cc5c(cc4ccc31)OCO5)OCO2,,MIC,H37Rv,,,BACTEC,,>12.5 µg/mL
N/C(=N\N=C\c1ccccc1Cl)c1ccncc1,,MIC,1481,,,,,16 µg/mL
COc1ccc2[nH]c3c(C)c4ccncc4c(C)c3c2c1,,MIC,H37Rv,,VERO,,,<0.1 µg/mL
COc1cc(Cc2cnc(/N=C3\C(=O)N(CN4CCN(c5cccc(Cl)c5)CC4)c4ccc(F)cc43)nc2N)cc(OC)c1OC,,inhibition,H37Rv,6.25 µg/mL,,,,20%
CC1CN(c2cc3c(cc2F)C(=O)c2nc4ccccc4c(=O)n2-3)CCN1,,MIC,H37Rv,,,,,>5 µg/mL
COc1cc(Cc2cnc(/N=C3\C(=O)N(CN4CCN(c5ccc(Cl)cc5)CC4)c4ccc(F)cc43)nc2N)cc(OC)c1OC,,inhibition,H37Rv,6.25 µg/mL,,,,45%
O=C(O)c1cn(-c2ccc(F)cc2F)c2cc(N3CCC(O)(c4ccc(Cl)cc4)CC3)c([N+](=O)[O-])cc2c1=O,,MIC,ATCC35801,,,,,5.92 µM
COc1cc(Cc2cnc(/N=C3\C(=O)N(CN4CCN(c5ccccc5)CC4)c4ccc(F)cc43)nc2N)cc(OC)c1OC,,EC50,H37Rv,,,,,>6.25 µg/mL
Cc1ccc(/C=N/N=C(\N)c2ccncc2)cc1,,MIC,H37Rv,,,,,8 µg/mL
COc1c(OCc2ccccc2)ccc2c1c[n+](C)c1c3cc4c(cc3ccc21)OCO4,,MIC,H37Rv,,,BACTEC,,<12.5 µg/mL
CCN(CC)c1ccc(/C=N/NC(=O)c2cccnc2)cc1,,MIC,,,,,,1 µg/mL
O=[N+]([O-])c1ccc(Sc2cccc(Cl)c2Cl)c2ncccc12,,MIC,H37Rv,,,,,>200 µg/mL
COc1cc(O)c2c(O)c3c(=O)cc(C)oc3cc2c1,,MIC,ETA-R,,,,,>12.5 µg/mL
Oc1cc2ccc1Oc1ccc(cc1)CCc1ccc(c(O)c1)Oc1ccc(cc1)CC2,,MIC,H37Rv,,,resazurin,,40 µg/mL
CCN(CC)N(C(=O)c1cccc(C)c1)C(=O)c1cccc(C)c1,,MIC,H37Rv,,,BACTEC,,≥12.5 µg/mL
CC[C@@H](CO)NCCN[C@@H](CC)CO,,MIC,U113,,,,,16 µg/mL
Cl.NC1=NC(c2ccccc2)C2=C(N1)C(=O)N(Cc1ccccc1)C2,,MIC bound,H37Rv,,,BACTEC,,>12.8 µg/mL
CN1CCN(c2cccc3nc4n(c(=O)c23)-c2ccc(F)cc2C4=O)CC1,,MIC,H37Rv,,,,,5 µg/mL
COc1ccccc1NC(=O)CC(=O)N1N=C(C)C(N=Nc2cccc(C(=O)O)c2)C1=O,,inhibition,H37Rv,12.8 µg/mL,,BACTEC,,6%
O=C(O)c1cn(-c2ccc(F)cc2F)c2cc(N3CCSCC3)c(F)cc2c1=O,,MIC,ATCC35801,,,,,14.87 µM
O=C(NC(=O)C1CCC(=O)N1Cc1ccccc1)NC1CCC(=O)N1Cc1ccccc1,,inhibition,H37Rv,12.5 µg/mL,,BACTEC,,0%
O=[N+]([O-])c1cccc2ccc(C3CCCC3)nc12,,inhibition,H37Rv,6.25 µg/mL,,,,20%
O=C(Nc1cc2c(oc1=O)CCCCCC2)c1cnccn1,,inhibition,H37Rv,6.25 µg/mL,,BACTEC,,17%
CC(C)(C)n1cc(C(=O)O)c(=O)c2cc([N+](=O)[O-])c(N3CCC(n4c(=O)[nH]c5cc(Cl)ccc54)CC3)cc21,,MIC,ATCC35801,,,,,1.52 µM

A number after MIC or MFC names an inhibition level or a share of isolates. Conditions beyond the fields shown may differ between rows. MIC bound comes from a single tested concentration. ECn: concentration that inhibits the pathogen or its effect by n%. Percent inhibition refers to the dose given; in toxicity tests it is the harm to the cells. Zone: diameter of growth inhibition.